A mixed list of measured activities; the numbers were collected in NIAID ChemDB.

Common to all: growth or infection tests; species: Mycobacterium tuberculosis

Lines come from different laboratories, so protocols vary. Inhibition is in % at the dose shown (toxicity tests: loss of growth or viability). MIC bound comes from a single tested concentration. Blank or dashed fields: not listed here. ECn: concentration that inhibits the pathogen or its effect by n%. MIC50, MIC90 and the like: level of inhibition, or share of isolates inhibited. Two numbers with a dash give a range or band.

smiles	dose	endpoint	mutations	setting	strain	read by	result
Cc1[nH][nH]c(=O)c1N=Nc1ccc(-c2n[nH]c(=S)n2-c2ccccc2)cc1		EC50			H37Rv		>12.5 µg/mL
C=C(NC(=O)C(=C)NC(=O)c1csc(C2=NC3CC4(C2)NC(=O)C(C)NC(=O)C(=C)NC(=O)C(=C)NC(=O)C(C(C)C)NC2C=Cc5c(C(C)O)cc(nc5C2O)C(=O)OC(C)C(NC(=O)c2csc(n2)C(C(C)(O)C(C)O)NC(=O)C2CSC(=N2)/C(=C\C)NC(=O)C(C(C)O)NC(=O)c2csc4n2)c2nc3cs2)n1)C(N)=O		MIC			H37Ra		6.25 µM
CC(=O)C1(OC(=O)/C=C/c2ccc(O)c(O)c2)C[C@@H](O)C(OC(=O)/C=C/c2ccc(O)c(O)c2)[C@H](O)C1		MIC bound			H37Rv	BACTEC	>12.5 µg/mL
CN1CCN(c2ccc3c(c2)-n2c(nc4ccccc4c2=O)C3=O)CC1		MIC			H37Rv		5 µg/mL
CCC1Cn2cc([N+](=O)[O-])nc2O1		MIC			H37Rv-T3 (PA-824-resistant)		>100 µM
O=C1c2ccc(Cl)cc2-n2c1nc1ccccc1c2=O		MIC			MDR 10038		1 µg/mL
CN[C@@H]1[C@H](O[C@H]2[C@H](O[C@H]3[C@H](O)[C@@H](O)[C@H](N=C(N)N)[C@@H](O)[C@@H]3N=C(N)N)O[C@@H](C)[C@]2(O)C=O)O[C@@H](CO)[C@H](O)[C@H]1O		MIC99	MDR		8666/2010	broth dilution	>32 µM
O=C(Oc1ccc(Cl)cc1C(=O)Nc1ccc(Cl)c(Cl)c1)c1ccccc1		MIC		14 d	53/2009	broth dilution	0.5 µM
CCN(CC)C(=S)SCCO		MIC bound			H37Rv	BACTEC	>128 µg/mL
COc1ccc2c(c1)C(=O)c1nc3ccccc3c(=O)n1-2		MIC			H37Rv		1 µg/mL
Cc1ccc(C)c2c(N=Nc3ccccc3[N+](=O)[O-])c(O)[nH]c12		MIC bound			H37Rv	resazurin	>6.25 µg/mL
CC[C@H]1OC(=O)[C@H](C)[C@@H](O[C@H]2C[C@@](C)(OC)[C@@H](O)[C@H](C)O2)[C@H](C)[C@@H](O[C@@H]2O[C@H](C)C[C@H](N(C)C)[C@H]2O)[C@](C)(OC)C[C@@H](C)C(=O)[C@H](C)[C@@H](O)[C@]1(C)O		MIC90			22 strains (rifampin- isoniazid-resistant)		25 µg/mL
Cc1nn2c(=O)[nH]cnc2c1Cl		MIC bound			H37Rv	resazurin	>6.25 µg/mL
CCOC(=O)/C(N=Nc1ccc(-c2n[nH]c(=O)n2-c2ccccc2)cc1)=C(\C)O		EC50			H37Rv		>12.5 µg/mL
NCC[C@H](O)C(=O)N[C@@H]1C[C@H](N)[C@@H](O[C@H]2O[C@H](CN)[C@@H](O)[C@H](O)[C@H]2O)[C@H](O)[C@H]1O[C@H]1O[C@H](CO)[C@@H](O)[C@H](N)[C@H]1O		MIC99	MDR		Praha 4	broth dilution	1 µM
Cc1[nH]n(-c2ccccc2)c(=O)c1N=Nc1ccc(-c2n[nH]c(=S)n2-c2ccccc2)cc1	12.5 µg/mL	inhibition			H37Rv		17%
CC(=O)N1c2ccccc2C23CCN4CC5=CCOC(O)C(C5CC42)C13		MIC bound			H37Rv	BACTEC	>12.5 µg/mL
C#CCN(Cc1ccc2nc(N)nc(N)c2c1Cl)c1ccc(C(=O)N[C@@H](CCC(=O)O)C(=O)O)cc1		EC50			ATCC 2724	resazurin	>99 µM
Nc1nc(Cl)nc2c1ncn2[C@@H]1O[C@H](CO)[C@@H](O)[C@H]1O		MIC			H37Ra		12.5 µM
S=C(NCCNC(=S)[S][Sn]([c]1ccccc1)([c]1ccccc1)[c]1ccccc1)[S][Sn]([c]1ccccc1)([c]1ccccc1)[c]1ccccc1		MIC			PAS-R		0.4 µg/mL
CCN(CC)c1nc2c(s1)c1c(O)c3c(O)c(C)c4c(c32)C(=O)[C@@](C)(O/C=C/[C@H](OC)[C@@H](C)[C@@H](OC(C)=O)[C@H](C)[C@H](O)[C@H](C)[C@@H](O)[C@@H](C)/C=C/C=C(/C)C(=O)N1)O4		MBC			3181-4		0.5 µg/mL
CC(C)N=c1cc2n(-c3ccc(Cl)cc3)c3ccccc3nc-2cc1Nc1ccc(Cl)cc1		MIC99	MDR		8666/2010	broth dilution	0.125 µM
O=C1c2cc([N+](=O)[O-])ccc2-n2c1nc1ccc(Cl)cc1c2=O		MIC			H37Rv		<1 µg/mL
O=[N+]([O-])c1cn2c(n1)OC[C@@H](OCc1ccc(OCc3ccccc3)cc1)C2		MIC			H37Rv-T2-3547 (PA-824-resistant)		0.2 µM
Cc1ccc([N+](=O)[O-])cc1NC(=O)C(=O)Cc1cc(=O)oc2cc(O)ccc12	6.25 µg/mL	inhibition			H37Rv	resazurin	-7%
O=C(O)c1c[nH]c2cc(OCc3ccccc3)ccc2c1=O		MIC			H37Ra		12.5 µM
C[C@]1(COc2ccc(N3CCC(Oc4ccc(OC(F)(F)F)cc4)CC3)cc2)Cn2cc([N+](=O)[O-])nc2O1		MIC			ATCC 35820 (H37RV-S-R)		0.012 µg/mL
Nc1ccc2nc3n(c(=O)c2c1)-c1ccc(F)cc1C3=O		MIC			H37Rv		5 µg/mL
C[C@H]1COc2c(N3CCN(C)CC3)c(F)cc3c(=O)c(C(=O)O)cn1c23		MIC90			18 strains (levofloxacin-resistant)		12.5 µg/mL
CC(=O)[C@]1(O)Cc2c(O)c3c(c(O)c2[C@@H](O[C@H]2C[C@H](N)[C@H](O)[C@H](C)O2)C1)C(=O)c1ccccc1C3=O		MIC			H37Ra		6.25 µM
Cc1cc(NS(=O)(=O)c2ccc(N)cc2)no1		MIC			H37Rv	turbidity	200 µg/mL
CN[C@@H]1[C@@H](O)[C@@H](O[C@@H]2[C@@H](O)[C@H](O[C@H]3O[C@H](CN)CC[C@H]3N)[C@@H](N)C[C@H]2N)OC[C@]1(C)O		MIC99	MDR		234/2005	broth dilution	0.25 µM
CN1CCN(c2cc3c(cc2F)C(=O)c2nc4cc(F)ccc4c(=O)n2-3)CC1		MIC			MDR 10038		>5 µg/mL
Cc1cc(S(=O)(=O)Nc2nc(N)nc(N3N=CCC3C)n2)c(S)cc1Cl	12.5 µg/mL	inhibition			H37Rv	BACTEC	23%
Cc1cc(N)c2ccccc2[n+]1CCCCCCCCCC[n+]1c(C)cc(N)c2ccccc21		MIC			H37Ra		6.25 µM
O=C(Oc1ccc(Br)cc1C(=O)Nc1ccc(C(F)(F)F)cc1)c1ccccc1		MIC		21 d	9449/2006	broth dilution	1 µM
CCOC(=O)/C(N=Nc1ccc(C(=O)N/N=C\c2ccc(F)cc2)cc1)=C(\C)O		MIC			H37Rv		>12.5 µg/mL
COc1ccc2c(c1OC)C(=C(Cl)Cl)N1CCc3cc4c(cc3C1=C2C=O)OCO4	12.5 µg/mL	inhibition			H37Rv	BACTEC	63%
COC(=O)[C@@H]1[C@H](O)[C@H](C)C(O)[C@H](C)/C=C\C=C(/C)C(=O)Nc2c(C)c(OC(C)=O)c3c(c2O)C(=O)C(C)=C2OCOC(=C23)/C(C)=C/[C@@](C)(O)[C@H](O)[C@@H](C)[C@H]1OC(C)=O		MIC			H37Ra		6.25 µM
CN1CCN(c2ccc3c(=O)n4c(nc3c2)C(=O)c2cc(F)ccc2-4)CC1		MIC			MDR 10038		1 µg/mL
CC1COc2c(N3CCN(C)CC3)c(F)cc3c(=O)c(C(=O)O)cn1c23		MIC99	MDR		8666/2010	broth dilution	2 µM
CN(C)c1ccc(O)c2c1C[C@H]1C[C@H]3[C@H](N(C)C)C(=O)C(C(N)=O)=C(O)[C@@]3(O)C(=O)C1=C2O		MIC			H37Rv	turbidity	25 µg/mL
O=[N+]([O-])c1ccc(Cl)c(C(Nc2nncs2)Nc2nncs2)c1	12.5 µg/mL	inhibition			H37Rv	BACTEC	0%
COC(=O)N[C@H]1[C@@H](C)O[C@@H](O[C@H]2C/C=C(\C)C3C=CC4C([C@@H](C)C[C@H](O[C@@H]5C[C@H](C)[C@H](O)[C@@](O)(C6C[C@@H](O)[C@H](O[C@H]7CC[C@@H](OC)[C@H](C)O7)[C@H](C)O6)C5)[C@@H]4O)[C@]3(C)C(O)=C3C(=O)OC4(CC(C=C(CO)[C@@H]4C)/C=C/2C)C3=O)C[C@]1(C)[N+](=O)[O-]		MIC			H37Ra		3.125 µM
C=CCn1c(-c2ccc(N=N/C(C(=O)OCC)=C(/C)O)cc2)n[nH]c1=S		MIC			H37Rv		>12.5 µg/mL
N#Cc1c(NN)nc(NN)c(C#N)c1-c1ccccc1		MIC bound			H37Rv	BACTEC	>12.5 µg/mL
CN[C@@H]1[C@@H](O)[C@@H](O[C@@H]2[C@@H](O)[C@H](O[C@H]3O[C@H](CN)CC[C@H]3N)[C@@H](N)C[C@H]2N)OC[C@]1(C)O		MIC			H37Rv	turbidity	3.1 µg/mL
CN1C[C@H](C(=O)N[C@]2(C)O[C@@]3(O)[C@@H]4CCCN4C(=O)[C@H](Cc4ccccc4)N3C2=O)C=C2c3cccc4[nH]cc(c34)C[C@H]21		MIC			H37Rv	BACTEC	≥12.8 µg/mL
O=C(Oc1ccc(Cl)cc1C(=O)Nc1ccc(C(F)(F)F)cc1)c1ccccc1		MIC		21 d	7357/1998	broth dilution	0.5 µM
CCOC(=O)c1c(C)c2c(n1C)CC/C(=C\N1CCN(c3ccccc3)CC1)C2=O		MIC bound			H37Rv	resazurin	>6.25 µg/mL
NNC(=O)c1ccncc1		MIC99	MDR		234/2005	broth dilution	16 µM
CC1COc2c(N3CCN(C)CC3)c(F)cc3c(=O)c(C(=O)O)cn1c23		MIC			SMI 21	BACTEC	0.5 µg/mL
CC(C)(C)OC(=O)CCCCC(NC(=O)c1ccc(NCc2ccc3nc(N)nc(N)c3c2Cl)cc1)C(=O)O		EC50			ATCC 2724	resazurin	>99 µM
NC(=O)[C@H](O)[C@@H](O)[C@H](O)[C@H](O)CO	6.25 µg/mL	inhibition			H37Rv	resazurin	15%
CO[C@H]1/C=C/O[C@@]2(C)Oc3c(C)c(O)c4c(O)c(c(/C=N/N5CCN(C)CC5)c(O)c4c3C2=O)NC(=O)/C(C)=C\C=C\[C@H](C)[C@H](O)[C@@H](C)[C@@H](O)[C@@H](C)[C@H](OC(C)=O)[C@@H]1C		MIC99	MDR		8666/2010	broth dilution	>8 µM
O=c1cc(C(F)(F)F)[nH]c2c3ncccc3c3nc4ccccc4nc3c12		MIC			H37Rv	BACTEC	≥12.5 µg/mL
N[C@@H]1CN(c2c(F)cc3c(=O)c(C(=O)O)cn([C@@H]4C[C@@H]4F)c3c2Cl)CC12CC2		MIC50			18 strains (levofloxacin-resistant)		0.78 µg/mL
CC(O)C1(O)C(O)CC(OC2c3cc4c(c(O)c3[C@@H]3C[C@@]2(C)OC32C=c3cc[nH]c3=N2)C(=O)c2cccc(O)c2C4=O)OC1C		MIC bound			H37Rv	BACTEC	≤12.5 µg/mL
[O-]c1ccccc1CNCCCCCCNCCCCCCCCNCCCCCCNCc1ccccc1[O-]		MIC			H37Ra		6.25 µM
CSC(=S)N/N=C/c1cccn1C	128 µg/mL	inhibition			H37Rv	BACTEC	99%
O=C(Oc1cc(Cl)ccc1C(=O)Nc1ccc(Br)cc1)c1ccccc1		MIC		21 d	331/88 (H37Rv)	broth dilution	2 µM
COc1ccc2c(c1)OC(C)(C)C(c1ccccc1)=C2c1ccc2c(c1)NCCO2	12.5 µg/mL	inhibition			H37Rv	BACTEC	23%
O=C(Oc1cc(Cl)ccc1C(=O)Nc1cccc(Cl)c1)c1ccccc1		MIC		21 d	331/88 (H37Rv)	broth dilution	4 µM
CC(C)(O)c1cc2nc3ccccc3nc2n1CCO	6.25 µg/mL	inhibition			H37Rv	resazurin	6%
CO[C@H]1/C=C/O[C@@]2(C)Oc3c(C)c(O)c4c(O)c(c(/C=N/N5CCN(C)CC5)c(O)c4c3C2=O)NC(=O)/C(C)=C\C=C\[C@H](C)[C@H](O)[C@@H](C)[C@@H](O)[C@@H](C)[C@H](OC(C)=O)[C@@H]1C		MIC			PR1370		0.16 µg/mL
O=C(N/N=C/c1cccnc1)C(O)C(O)C(O)C(O)CO	12.5 µg/mL	inhibition			H37Rv	BACTEC	16%
C[C@H]1c2cccc(O)c2C(O)=C2C(=O)[C@]3(O)C(O)=C(C(N)=O)C(=O)[C@@H](N(C)C)[C@@H]3[C@@H](O)[C@@H]21		MIC			H37Rv	turbidity	6.3–50 µg/mL

For reference, 7 entries again:

smiles	dose	endpoint	mutations	setting	strain	read by	result
N#Cc1c(NN)nc(NN)c(C#N)c1-c1ccccc1		MIC bound			H37Rv	BACTEC	>12.5 µg/mL
C#CCN(Cc1ccc2nc(N)nc(N)c2c1Cl)c1ccc(C(=O)N[C@@H](CCC(=O)O)C(=O)O)cc1		EC50			ATCC 2724	resazurin	>99 µM
O=c1cc(C(F)(F)F)[nH]c2c3ncccc3c3nc4ccccc4nc3c12		MIC			H37Rv	BACTEC	≥12.5 µg/mL
CO[C@H]1/C=C/O[C@@]2(C)Oc3c(C)c(O)c4c(O)c(c(/C=N/N5CCN(C)CC5)c(O)c4c3C2=O)NC(=O)/C(C)=C\C=C\[C@H](C)[C@H](O)[C@@H](C)[C@@H](O)[C@@H](C)[C@H](OC(C)=O)[C@@H]1C		MIC			PR1370		0.16 µg/mL
CC(=O)N1c2ccccc2C23CCN4CC5=CCOC(O)C(C5CC42)C13		MIC bound			H37Rv	BACTEC	>12.5 µg/mL
NCC[C@H](O)C(=O)N[C@@H]1C[C@H](N)[C@@H](O[C@H]2O[C@H](CN)[C@@H](O)[C@H](O)[C@H]2O)[C@H](O)[C@H]1O[C@H]1O[C@H](CO)[C@@H](O)[C@H](N)[C@H]1O		MIC99	MDR		Praha 4	broth dilution	1 µM
[O-]c1ccccc1CNCCCCCCNCCCCCCCCNCCCCCCNCc1ccccc1[O-]		MIC			H37Ra		6.25 µM